From patent publication US20190375795A1

Assays:
Assay in all cases: cell-based or functional assay
[1] = target: T1, hERG, Q12809
T1 chain: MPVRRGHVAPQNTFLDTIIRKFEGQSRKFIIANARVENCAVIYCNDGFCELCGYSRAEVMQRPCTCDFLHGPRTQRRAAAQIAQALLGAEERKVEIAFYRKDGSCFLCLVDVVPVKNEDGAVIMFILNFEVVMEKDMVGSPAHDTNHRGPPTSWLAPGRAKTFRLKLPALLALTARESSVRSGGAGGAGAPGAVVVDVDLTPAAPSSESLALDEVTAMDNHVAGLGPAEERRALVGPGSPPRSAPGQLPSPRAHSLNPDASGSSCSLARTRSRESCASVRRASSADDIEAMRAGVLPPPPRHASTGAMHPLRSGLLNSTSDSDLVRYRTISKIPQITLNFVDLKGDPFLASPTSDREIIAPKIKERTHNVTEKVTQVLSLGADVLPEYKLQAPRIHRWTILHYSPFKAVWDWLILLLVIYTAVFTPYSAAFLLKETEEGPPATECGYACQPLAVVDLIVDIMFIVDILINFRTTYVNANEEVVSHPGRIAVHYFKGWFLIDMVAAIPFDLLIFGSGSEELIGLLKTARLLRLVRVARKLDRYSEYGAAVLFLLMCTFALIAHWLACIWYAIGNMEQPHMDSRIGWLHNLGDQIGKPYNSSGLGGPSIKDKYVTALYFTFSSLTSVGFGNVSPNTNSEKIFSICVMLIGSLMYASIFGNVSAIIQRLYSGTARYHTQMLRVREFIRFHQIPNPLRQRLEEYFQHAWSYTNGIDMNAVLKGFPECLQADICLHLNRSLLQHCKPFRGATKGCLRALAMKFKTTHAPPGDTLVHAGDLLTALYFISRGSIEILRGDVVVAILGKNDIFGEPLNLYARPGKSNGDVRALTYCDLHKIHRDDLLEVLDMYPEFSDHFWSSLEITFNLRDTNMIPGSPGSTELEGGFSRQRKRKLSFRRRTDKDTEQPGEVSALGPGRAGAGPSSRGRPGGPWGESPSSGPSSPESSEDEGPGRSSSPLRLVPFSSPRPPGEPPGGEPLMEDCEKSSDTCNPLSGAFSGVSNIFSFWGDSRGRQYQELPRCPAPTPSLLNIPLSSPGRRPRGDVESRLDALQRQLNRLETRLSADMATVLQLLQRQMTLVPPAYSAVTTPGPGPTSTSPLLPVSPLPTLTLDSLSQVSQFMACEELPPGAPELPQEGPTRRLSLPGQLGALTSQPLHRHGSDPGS

[2] = target: human Kv1.3 (hKv1.3) channel (human), P22001
[3] = target: T2, Kv1.1, Q09470
T2 chain: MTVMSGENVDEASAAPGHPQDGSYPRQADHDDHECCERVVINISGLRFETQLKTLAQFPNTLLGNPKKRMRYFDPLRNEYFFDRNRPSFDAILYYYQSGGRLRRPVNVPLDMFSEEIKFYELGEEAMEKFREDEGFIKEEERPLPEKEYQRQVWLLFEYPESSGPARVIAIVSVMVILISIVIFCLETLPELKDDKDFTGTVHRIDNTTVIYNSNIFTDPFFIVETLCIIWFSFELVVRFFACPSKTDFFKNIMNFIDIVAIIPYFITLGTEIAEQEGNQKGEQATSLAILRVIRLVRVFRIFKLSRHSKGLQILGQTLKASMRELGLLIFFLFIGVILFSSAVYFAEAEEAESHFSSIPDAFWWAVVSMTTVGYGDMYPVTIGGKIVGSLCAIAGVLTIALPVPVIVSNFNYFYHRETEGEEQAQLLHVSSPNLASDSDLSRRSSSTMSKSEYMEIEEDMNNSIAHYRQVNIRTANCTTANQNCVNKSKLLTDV

[4] = target: T3, Kv1.2, P16389
T3 chain: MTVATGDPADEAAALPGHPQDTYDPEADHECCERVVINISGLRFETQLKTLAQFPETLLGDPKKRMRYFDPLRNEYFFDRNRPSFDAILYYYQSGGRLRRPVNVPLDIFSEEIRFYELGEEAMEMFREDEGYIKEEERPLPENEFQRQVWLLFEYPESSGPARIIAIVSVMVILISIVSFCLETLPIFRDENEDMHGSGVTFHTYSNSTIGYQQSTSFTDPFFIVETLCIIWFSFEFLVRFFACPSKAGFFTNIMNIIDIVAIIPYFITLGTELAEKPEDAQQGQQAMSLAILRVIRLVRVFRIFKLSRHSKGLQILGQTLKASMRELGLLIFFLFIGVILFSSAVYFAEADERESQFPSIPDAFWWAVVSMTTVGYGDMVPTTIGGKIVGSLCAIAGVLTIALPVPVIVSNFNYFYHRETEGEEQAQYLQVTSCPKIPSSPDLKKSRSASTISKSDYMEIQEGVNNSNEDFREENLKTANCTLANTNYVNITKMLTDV

ASCRTPKDCADPCRKETGCPNAKCMNRKCKCYGC (modifications not checked) [cgtx 538] gave a Normalized Block of hERG current at 600 nM (patch clamp, HEK cells) [1] of 0.05.

With ASCRTPKQCARPCRKQTGCPYGKCMNRKCKCNRC (modifications not checked) [cgtx 539] the Normalized Block of hERG current at 20 µM (patch clamp, HEK cells) [1] was 0.16 and the Normalized Block of hERG current at 40 µM (patch clamp, HEK cells) [1] was 0.19.

Binder ASCRTPKQCYPHCKKETGCPYGKCMNRKCKCNRC (modifications not checked) [cgtx 540] has a Normalized Block of hERG current at 8 µM (patch clamp, HEK cells) [1] of 0.04 and a Normalized Block of hERG current at 16 µM (patch clamp, HEK cells) [1] of 0.13.

ARCRTPRDCADPCRKETGCPYGKCMNRKCRCNRC (modifications not checked) [cgtx 541] showed a Normalized Block of hERG current at 2.5 µM (patch clamp, HEK cells) [1] of 0.09 and a Normalized Block of hERG current at 5 µM (patch clamp, HEK cells) [1] of 0.16.

For ARCRTSRNCAKPCRKQTGCPYGKCMNRKCRCNRC (modifications not checked) [cgtx 542], the Normalized Block of hERG current at 1.5 µM (patch clamp, HEK cells) [1] was 0.08 and the Normalized Block of hERG current at 3 µM (patch clamp, HEK cells) [1] was 0.19.

With GVPINVSCTGSPQCIKPCKDATGCPYGKCMNRKCKCNRC (modifications not checked) [cgtx 543] the Normalized Block of hERG current at 8.5 µM (patch clamp, HEK cells) [1] was -0.03 and the Normalized Block of hERG current at 17 µM (patch clamp, HEK cells) [1] was 0.01.

With TIINVKCTSPKQCLPPCKAQTGCPYGKCMNRKCKCNRC (modifications not checked) [cgtx-544(Mix)] the Normalized Block of hERG current at 5 µM (patch clamp, HEK cells) [1] was 0.04, the Normalized Block of hERG current at 10 µM (patch clamp, HEK cells) [1] was 0.07 and the IC50, block of Kv1.3 current, peptide in human plasma, time point 0 h [2] was 20.9 nM. For the same binder, the IC50, block of Kv1.3 current, peptide in rat plasma, time point 0 h [2] was 15 nM.

QFTNVSCTTSKECWSVCQRLTGCPYGKCMNRKCKCNRC (modifications not checked) [cgtx 547] was tested, and the Normalized Block of hERG current at 5.5 µM (patch clamp, HEK cells) [1] was 0.07 and the Normalized Block of hERG current at 11 µM (patch clamp, HEK cells) [1] was 0.12.

For TIINVKCTSPKQCLPPCKAQTGCPYGKCMNRKCKCNRC (modifications not checked) [cgtx-544(Sing)], the IC50, block of Kv1.1 current (Patchliner, Sf21 cells) [3] was 6000 nM, the IC50, block of Kv1.2 current (Patchliner, stably transfected CHO cells) [4] was 2500 nM and the IC50, block of Kv1.3 current after about 20 min incubation (patch clamp) [2] was 0.9 nM. For the same binder, the IC50, block of Kv1.3 current, peptide in human blood serum [2] was 7 nM.
